## Primary screen of a compound library

Source: ChEMBL document CHEMBL3988442, “University of Dundee, Small-Polar-MMV Screening Library” (2021).

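Growth of Mycobacterium tuberculosis over 3 days (7H9 medium with glucose and tyloxapol); the read-out is not stated. Concentration: 500 µM. Direction is inferred from retests: higher values go with more growth inhibition. About 18,000 compounds were tested under these conditions; 7.9% (about 1,400) showed 50% or more at least once.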

Values are the deposited “Percent Effect”, in %.
How 0% and 100% were set is not recorded. Most values in the screen are low, and negative values occur.
The entries come from a sample that favours strong results.

{"smiles": "NCc1ccc2c(c1)CNC2", "effect": -13.11}
{"smiles": "O=C(NCCN1CCCC1)c1ccco1", "effect": 6.779}
{"smiles": "CC(C)COc1ccc(NC(=O)C2CCOC2)cn1", "stereo": "configuration not stated", "effect": -83.43}
{"smiles": "CCN(CC)C(=O)COC(=O)c1c(C)nsc1N", "effect": -11.44}
{"smiles": "CC(=O)Nc1ccc(CNC(C)C(C)C)cc1", "stereo": "configuration not stated", "effect": 5.682}
{"smiles": "CN(CCC#N)C(=O)CN1C(=O)c2ccccc2C1=O", "effect": -9.36}
{"smiles": "CNC(=O)C(C)S(=O)(=O)Cc1ccc(F)cc1Cl", "stereo": "configuration not stated", "effect": 15.5}
{"smiles": "CCOc1cc(CN)ccn1", "effect": 45.16}
{"smiles": "Cc1ccnc(NCCn2ccnc2-c2ncc[nH]2)c1", "effect": 31.21}
{"smiles": "COCCNS(=O)(=O)c1ccc(C#N)cc1", "effect": 2.864}
{"smiles": "Cc1cccc(C(=O)NCC(C)N2CCOCC2)n1", "stereo": "configuration not stated", "effect": 10.69}
{"smiles": "CC(c1cccs1)N(C)CC(=O)N1CCNC1=O", "stereo": "configuration not stated", "effect": 10.67}
{"smiles": "CCNC(=O)N1CCc2cc(OC)c(OC)cc2C1", "effect": 21.85}
{"smiles": "CCC(CC)NC(=O)Nc1ccccc1CC(=O)NC", "effect": 0.751}
{"smiles": "CCCc1cc(C(=O)NCC2COCCO2)cs1", "stereo": "configuration not stated", "effect": 81.58}
{"smiles": "c1ccc(N2CCC(N3CCCC3)CC2)nc1", "effect": 1.113}
{"smiles": "N[C@@H]1CCN(C(=O)CCc2ccc(F)cc2)C1", "effect": 35.26}
{"smiles": "O=C(NCc1ncc[nH]1)Nc1cccc(F)c1", "effect": 20.34}
{"smiles": "COc1nccnc1CN1CCN(C)CC1C(C)C", "stereo": "configuration not stated", "effect": 3.989}
{"smiles": "CC(C)CS(=O)(=O)CCNC(=O)Cn1cccnc1=O", "effect": 9.546}
{"smiles": "CN(CC(=O)Nc1sccc1C(N)=O)Cc1cccs1", "effect": 74.28}
{"smiles": "CS(=O)(=O)N1CCCCC1C(=O)N1CCOCC1", "stereo": "configuration not stated", "effect": -8.964}
{"smiles": "CCNCc1cccnc1N(C)CCc1ccccn1", "effect": 17.53}
{"smiles": "O=C(CN1CCOCC1)c1cccc(Cl)c1", "effect": 13.97}
{"smiles": "O=C(c1ccco1)N1CCN(CC2(O)CCNC2)CC1", "stereo": "configuration not stated", "effect": 2.019}
{"smiles": "CC(C)CNc1nnc(SCCS(C)(=O)=O)s1", "effect": 31.44}
{"smiles": "COC(=O)C1CCN(C(=O)Cc2cccc(F)c2)CC1", "effect": 50}
{"smiles": "COCC(C)NC(=O)c1cncn1-c1ccc(F)cc1", "stereo": "configuration not stated", "effect": -2.565}
{"smiles": "CNC(=O)c1ccc(CO)o1", "effect": -12.52}
{"smiles": "c1ccc(OCCCOC2CNC2)cc1", "effect": 59.62}
{"smiles": "COc1cc(OC)cc(N2CCC(N)CC2)c1", "effect": 37.61}
{"smiles": "COCCCNC(=O)C1=Cc2ccccc2OC1", "effect": 71.42}
{"smiles": "NC(=O)CSc1nnc(-c2cc(Br)ccc2O)[nH]1", "effect": 78.95}
{"smiles": "COC(=O)N1CCC(NC2CCOCC2)C1", "stereo": "configuration not stated", "effect": 1.385}
{"smiles": "Cc1ccc(C(=O)NCCN)cc1F", "effect": 43.54}
{"smiles": "COC(=O)c1csc(NC(=O)c2cnn(C)c2)c1", "effect": 1.171}
{"smiles": "CCOc1ccccc1[C@@H](C)N", "effect": 24.24}
{"smiles": "O=C(CCC(=O)c1ccc(F)cc1)NCc1ccco1", "effect": 65.06}
{"smiles": "Cc1ccccc1CC(=O)NCC1(CO)CC1", "effect": 2.012}
{"smiles": "CS(=O)(=O)Cc1ccc(C(=O)Nc2ccccc2)cc1", "effect": -2.403}
{"smiles": "O=C(c1csc(Br)c1)N1CCOCC1", "effect": 21.77}
{"smiles": "COc1cccc(CNS(=O)(=O)Cc2ccon2)c1", "effect": 13.77}
{"smiles": "CNC(C)CS(C)(=O)=O", "stereo": "configuration not stated", "effect": 3.74}
{"smiles": "NC(CC(=O)N1CCSCC1)c1ccccc1", "stereo": "configuration not stated", "effect": 12.42}
{"smiles": "NCC1CCC2(CCCC2)O1", "stereo": "configuration not stated", "effect": -1.23}

4 of the entries, repeated:

{"smiles": "Cc1cccc(C(=O)NCC(C)N2CCOCC2)n1", "stereo": "configuration not stated", "effect": 10.69}
{"smiles": "COCC(C)NC(=O)c1cncn1-c1ccc(F)cc1", "stereo": "configuration not stated", "effect": -2.565}
{"smiles": "NC(CC(=O)N1CCSCC1)c1ccccc1", "stereo": "configuration not stated", "effect": 12.42}
{"smiles": "CN(CCC#N)C(=O)CN1C(=O)c2ccccc2C1=O", "effect": -9.36}